In PubChem BioAssay AID651654 (Broad Institute, 2012):
This is a selection; strong and weak results do not stand in their true shares. Calls of active or inactive are those of the source.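 The calls were made as follows: active = mean lysis activity across replicates of at least 80%, whatever share of replicates individually reach that level; inactive = mean lysis activity below 80%.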

Test: Cryptococcus neoformans cell lysis inducers, primary screen, AK release luminescence, single concentration (AID 651654)
Details: C. neoformans lysis, adenylate kinase release luminescence, 4 h; at 15 µM; hits give high values; normalised: neutral wells 0, clomiphene wells 100
Method in brief: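 Material: C. neoformans cells | Amount: Yeast cell density of 5 × 10^6 cells/mL | Medium: Fresh YPD growth medium | Dosing: Single dose | Times: Static 4 h at 37 °C with compound, 1 h detection | Detection: AK luminescence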

Row | SMILES | lysis activity
1 | CCCCOc1ccc(C(=O)NCC2(N3CCOCC3)CCCCC2)cc1 | inactive: -0.694%
2 | COc1ccc(NC2CCN(CCc3ccccc3)CC2)c(OC)c1 | inactive: -1.89%
3 | CCOC(=O)N1CCC(Nc2ccc(F)cc2)CC1 | inactive: 0.658%
4 | O=C(NCC1(N2CCCCC2)CCCCC1)c1cccc(C(F)(F)F)c1 | inactive: 0.699%
5 | CCCCn1nnnc1C(c1cccc2ccccc12)N1CCC(n2c(=O)[nH]c3ccccc32)CC1 (stereo not given) | inactive: -0.156%
6 | CN1CCN(CCOC(=O)C(O)(c2ccccc2)c2ccccc2)CC1 | inactive: -4.65%
7 | COc1cc(C(=O)NCC2(N3CCCCC3)CCCCC2)ccc1OC(F)F | inactive: -2.72%
8 | O=C(NCC1(N2CCOCC2)CCCCC1)c1cc(=O)[nH]c2ccccc12 | inactive: -0.175%
9 | CC(C)(C)n1nnnc1C(c1ccccc1OC(F)(F)F)N1CCC(n2c(=O)[nH]c3ccccc32)CC1 (stereo not given) | inactive: -12.3%
10 | O=C(NCC1(N2CCCCC2)CCCCC1)c1ccc(OC(F)F)cc1 | inactive: 2.18%
11 | CSc1ccc(C(=O)NCC2(N3CCOCC3)CCCCC2)cc1 | inactive: -0.012%
12 | CCN1CCC(Nc2ccc(Cl)cc2)CC1 | inactive: -0.65%
13 | N#CC1(Nc2ccccc2)CCN(CCc2ccccc2)CC1 | inactive: 2.82%
14 | O=c1[nH]c2ccccc2n1C1CCN(C(c2ccccc2OC(F)(F)F)c2nnnn2C2CCCC2)CC1 (stereo not given) | inactive: 0.531%
15 | O=C(NCC1(N2CCCCC2)CCCCC1)c1cncc(Br)c1 | inactive: 1.39%
16 | CN1CCC(Nc2cccc(F)c2)CC1 | inactive: -1.73%
17 | Cc1ccc(C(=O)NCC2(N(C)C)CCCCC2)o1 | inactive: 7.04%
18 | CCCOc1ccc(C(=O)NCC2(N(C)C)CCCCC2)cc1OC | inactive: -1.68%
19 | COc1ccc(C(c2nnnn2C2CCCC2)N2CCC(n3c(=O)[nH]c4ccccc43)CC2)cc1 (stereo not given) | inactive: 2.05%
20 | CN(C)c1cccc(C(=O)NCC2(N3CCCCC3)CCCCC2)c1 | inactive: 2.05%
21 | CCCCn1nnnc1C(c1ccccc1OC(F)(F)F)N1CCC(n2c(=O)[nH]c3ccccc32)CC1 (stereo not given) | inactive: -15.7%
22 | CCCCn1nnnc1C(c1ccnc2ccccc12)N1CCC(n2c(=O)[nH]c3ccccc32)CC1 (stereo not given) | inactive: -1.39%

Row | SMILES | lysis activity
23 | COc1cc(OC)c(C(=O)NCC2(N(C)C)CCCCC2)cc1OC | inactive: -3.48%
24 | O=C(NCC1(N2CCOCC2)CCCCC1)c1cc(F)c(F)cc1Cl | inactive: -2.66%
25 | CCC(c1nnnn1C(C)(C)C)N1CCC(n2c(=O)[nH]c3ccccc32)CC1 (stereo not given) | inactive: -0.683%
26 | N/C(=N\O)c1c(N)no[n+]1[O-] | inactive: 0.12%
27 | COc1cccc(C(c2nnnn2C(C)(C)C)N2CCC(n3c(=O)[nH]c4ccccc43)CC2)c1OC (stereo not given) | inactive: -2.03%
28 | CCOC(=O)N1CCC(Nc2ccc(C)cc2)CC1 | inactive: 1.28%
29 | CCCCn1nnnc1C(c1cccc(OC)c1OC)N1CCC(n2c(=O)[nH]c3ccccc32)CC1 (stereo not given) | inactive: -0.407%
30 | O=c1[nH]c2ccccc2n1C1CCN(C(c2cccs2)c2nnnn2C2CCCC2)CC1 (stereo not given) | inactive: -1.69%
31 | O=C(NCC1(N2CCOCC2)CCCCC1)c1cc(Br)ccc1Cl | inactive: -1.79%
32 | CCCCn1nnnc1C(c1ccccc1)N1CCC(n2c(=O)[nH]c3ccccc32)CC1 (stereo not given) | inactive: -0.353%
33 | COc1cc(C(=O)NCC2(N3CCOCC3)CCCCC2)cc(OC)c1C | inactive: 2.61%
34 | O=c1[nH]c2ccccc2n1C1CCN(C(c2ccnc3ccccc23)c2nnnn2C2CCCC2)CC1 (stereo not given) | inactive: 0.269%
35 | O=c1[nH]c2ccccc2n1C1CCN(C(c2cccs2)c2nnnn2C2CCCCC2)CC1 (stereo not given) | inactive: -1.19%
36 | c1ccc(CN2CCC(Nc3ccccc3)CC2)cc1 | inactive: -0.136%
37 | CCCN1CCC(Nc2cc(OC)cc(OC)c2)CC1 | inactive: 3.05%
38 | O=c1[nH]c2ccccc2n1C1CCN(C(c2ccccc2)c2nnnn2C2CCCC2)CC1 (stereo not given) | inactive: -13.1%
39 | CN(C)C1(CNC(=O)c2cccc(C#N)c2)CCCCC1 | inactive: 0.862%
40 | CC(C)(C)n1nnnc1C(c1cccc2ccccc12)N1CCC(n2c(=O)[nH]c3ccccc32)CC1 (stereo not given) | inactive: -17.5%
41 | CC(C)(C)OC(=O)N1CCC(N(C(=O)c2ccccc2)c2ccc(Cl)cc2)CC1 | inactive: 3.01%
42 | N#Cc1ccc(C(=O)NCC2(N3CCCCC3)CCCCC2)cc1 | inactive: -1.37%
43 | Cc1ccccc1NC1(C#N)CCN(Cc2ccccc2)CC1 | inactive: 1.83%
44 | CC(C)(C)n1nnnc1C(c1ccnc2ccccc12)N1CCC(n2c(=O)[nH]c3ccccc32)CC1 (stereo not given) | inactive: 3.88%

Row | SMILES | lysis activity
45 | COc1ccc(C(c2nnnn2C2CCCCC2)N2CCC(n3c(=O)[nH]c4ccccc43)CC2)cc1 (stereo not given) | inactive: 0.393%
46 | O=C(NCC1(N2CCCCC2)CCCCC1)c1ccco1 | inactive: 0.697%
47 | Cn1c(=O)[nH]cc(N(CCCl)CCCl)c1=O | inactive: -1.05%
48 | O=c1[nH]c2ccccc2n1C1CCN(C(c2ccnc3ccccc23)c2nnnn2C2CCCCC2)CC1 (stereo not given) | inactive: -9.13%
49 | COc1cc(OC)cc(C(=O)NCC2(N3CCCCC3)CCCCC2)c1 | inactive: 14.2%
50 | CC(=O)N(c1ccccc1)C1CCNCC1 | inactive: 1.52%
51 | COc1cccc(C(c2nnnn2C2CCCCC2)N2CCC(n3c(=O)[nH]c4ccccc43)CC2)c1OC (stereo not given) | inactive: 1.04%
52 | CCC(c1nnnn1C1CCCCC1)N1CCC(n2c(=O)[nH]c3ccccc32)CC1 (stereo not given) | inactive: -2.53%
53 | Cc1ccc(NC2(C#N)CCN(Cc3ccccc3)CC2)cc1 | inactive: -0.521%
54 | Cc1ccc(C(=O)NCC2(N3CCCCC3)CCCCC2)o1 | inactive: 1.25%
55 | Fc1ccccc1NC1CCN(Cc2ccccc2)CC1 | inactive: 0.793%
56 | CCC(CO)(C(=O)OC1CN2CCC1CC2)c1ccccc1 (stereo not given) | inactive: -1.62%
57 | COc1cccc(C(c2nnnn2C2CCCC2)N2CCC(n3c(=O)[nH]c4ccccc43)CC2)c1OC (stereo not given) | inactive: -13.7%
58 | COc1cc(OC)cc(C(=O)NCC2(N3CCOCC3)CCCCC2)c1 | inactive: 0.941%
59 | COc1cccc(C(=O)N(c2cc(C)cc(C)c2)C2CCN(C(=O)OC(C)(C)C)CC2)c1 | inactive: -4.35%
60 | CN1CCC(Nc2ccc(Cl)cc2)CC1 | inactive: 0.408%
61 | CCOc1ncccc1C(=O)NCC1(N2CCOCC2)CCCCC1 | inactive: -3.03%
62 | CN1CCC(Nc2ccc(F)c(Cl)c2)CC1 | inactive: -0.633%
63 | CCCOc1ccc(C(=O)NCC2(N(C)C)CCCCC2)cc1 | inactive: -1.74%
64 | O=c1[nH]c2ccccc2n1C1CCN(C(c2cc3ccccc3o2)c2nnnn2C2CCCC2)CC1 (stereo not given) | inactive: -22.7%
65 | O=C(O)C1(Nc2ccccc2)CCN(Cc2ccccc2)CC1 | inactive: 1.11%
